Compound potency records, mixed from different reports. Data source: NIAID ChemDB in PubChem.

Common to all: host cell toxicity; endpoint: CC50

Conditions beyond the fields shown may differ between rows. CCn is the concentration with n% toxicity to the cells.

structure,cells,result
[N-]=C=Nc1nncs1,CEF,>32 µg/mL
CS/C(N)=N\N=C\c1ccc(Cl)cc1Cl,Chorioallantoic membrane,632.5 µg/mL
COc1cc(/C=C/C(=O)Oc2c(-c3ccc(Cl)cc3)oc3ccccc3c2=O)ccc1OC(C)=O,HeLa,1.36 µM
Cc1ccc2c(c1)C(=Nc1ccc(S(=O)(=O)Nc3nc(C)cc(C)n3)cc1)C(=O)N2,HFF,>300 µM
CC(C)[C@H](NC(=O)OCc1ccccc1)C(=O)NC(CC(=O)O)C(=O)CF,VERO,>100 µM
Nc1nc(=O)n([C@@H]2C=C(CO)[C@@H](O)[C@H]2O)cc1F,MK2,100 µg/mL
CSc1noc(-c2ccc(OCCOc3ccc(Br)cc3)cc2)c1C#N,HEP-2,>25 µM
CO[C@H](CO)[C@@H](O)CCn1cnc2c(=O)[nH]c(N)nc21,HeLa,>400 µg/mL
Nc1nccc2c1ncn2[C@@H]1C[C@H](CO)[C@@H](O)[C@H]1O,LLC-MK2,>100 µg/mL
Nc1ncnc2c1ncn2[C@@H]1C[C@H](CO)[C@@H](O)[C@H]1O,L929,4.3 µM
Clc1ccc(-c2cc(SSc3cc(-c4ccc(Cl)cc4)sn3)ns2)cc1,HEP-2,88.39 µM
Cc1cn(CC[C@H](O)CCO)c(=O)[nH]c1=O,HeLa,>400 µg/mL
Nc1ccn(C[C@@H](CO)OCP(=O)(O)O)c(=O)n1,LLC-MK2,>100 µg/mL
Nc1ncnc2c1nc(Br)n2[C@@H]1O[C@H](CO)[C@@H](O)[C@H]1O,C1271,68 µM
O=S(=O)(O)c1c2ccccc2c(-c2c3nc(c(-c4c5ccccc5c(S(=O)(=O)O)c5ccccc45)c4ccc([nH]4)c(-c4c5ccccc5c(S(=O)(=O)O)c5ccccc45)c4nc(c(-c5c6ccccc6c(S(=O)(=O)O)c6ccccc56)c5ccc2[nH]5)C=C4)C=C3)c2ccccc12,CV-1,50 µg/mL
N#Cc1c(Cl)nsc1Cl,HEP-2,4 µM
CSc1noc(-c2ccc(OCCCc3ccccc3)cc2)c1C#N,HEP-2,>25 µM
N=C(N)CCNC(=O)c1c[nH]c(NC(=O)c2c[nH]c(NC(=O)CC(=O)Nc3c[nH]c(C(=O)Nc4c[nH]c(C(=O)NCCC(=N)N)c4)c3)c2)c1,PRK,≥10 µg/mL
Cc1cn([C@H]2C[C@H](O)[C@]3(CO)C[C@H]23)c(=O)[nH]c1=O,HFF,>100 µg/mL
Nc1ncnc2c1ncn2[C@@H]1C[C@H](CO)[C@@H](O)[C@H]1O,PRK,4 µg/mL
Cc1c(OCC(C)C)ccc2c1c(=O)cc(-c1ccccc1)n2C,HeLa S3,>5 µg/mL
N=c1c2ncn([C@@H]3O[C@H](CO)[C@@H](O)[C@H]3O)c2ncn1OCc1cc(F)cc(F)c1,LLC-MK2,>100 µg/mL
Cn1cc(C(=O)NCc2ccc(Cl)cc2)c(=O)c2cc(CN3CCOCC3)ccc21,HFF,>100 µM
COc1ccc(/C(C)=N/N=C(/N)SC)cc1,Chorioallantoic membrane,180 µg/mL
CC(C)[C@H](NC(=O)OCc1ccccc1)C(=O)NC(CCC(=O)N(C)C)C(=O)CF,VERO,>100 µM
C#Cc1nc(Cl)c2ncn([C@@H]3O[C@H](CO)[C@@H](O)[C@H]3O)c2n1,HFF,3 µg/mL
Cc1cc(C)nc(NS(=O)(=O)c2ccc(N=C3C(=O)Nc4ccc(F)cc43)cc2)n1,HFF,239 µM
CSc1nsc(-c2ccc(OCCCCOc3ccc([N+](=O)[O-])cc3)cc2)c1C#N,HEP-2/L-929/VERO,0.5 µM
Cc1c(-c2ccccc2)n(C)c2ccc(NCC(C)C)cc2c1=O,HeLa S3,>5 µg/mL
Nc1nc2c(ncn2[C@@H]2O[C@H](CO)[C@@H](O)[C@@H]2O)c(=O)[nH]1,C1271,135 µM
CSc1nsc(-c2ccc(OCCCOc3ccc([N+](=O)[O-])cc3)cc2)c1C#N,HEP-2/L-929/VERO,0.5 µM
NC12CC3CC(CC(C3)C1)C2,Chorioallantoic membrane,1000 µg/mL
O=C(Oc1c(-c2ccc(Cl)cc2)oc2ccccc2c1=O)c1cc(O)c(O)c(O)c1,HeLa,5.31 µM
c1ccc(-c2cc(SSc3cc(-c4ccccc4)sn3)ns2)cc1,HEP-2,89.28 µM
Nc1ncnc2c1ncn2[C@@H]1C[C@H](COP(=O)(O)O)[C@@H](O)[C@H]1O,HeLa,>400 µg/mL
CCCCCCCCCCCCCCCCCCOCCOP(=O)(O)COCCn1cnc2c(=O)[nH]c(N)nc21,HFF,1.9 µM
CSc1nsc(-c2ccc(OCCCCOc3ccc(C#N)cc3)cc2)c1C#N,HEP-2/L-929/VERO,2 µM
Cc1cc(C)nc(NS(=O)(=O)c2ccc(N=C3C(=O)N(CN4CCNCC4)c4ccccc43)cc2)n1,HFF,225 µM
Nc1nc(=O)n([C@@H]2O[C@H](CO)[C@@H](O)[C@@H]2O)cc1Cl,C1271,65 µM
CO[C@H](CO)[C@@H](O)CCn1ccc(N)nc1=O,HeLa,>400 µg/mL
CSc1noc(-c2ccc(OCCOc3ccccc3)cc2)c1C#N,HEP-2,>25 µM
Cn1c(O)c(N=NC(N)=S)c2ccccc21,LLC-MK2,>100 µg/mL
Cc1nc2c(N)ncnc2n1[C@@H]1O[C@H](CO)[C@@H](O)[C@H]1O,VERO,515 µM
Nc1ncnc2c1ncn2[C@@H]1O[C@H](CCO)[C@@H](O)[C@H]1O,VERO 76,>100 µg/mL
CCn1c(-c2ccsc2)cc(=O)c2cc(C(C)C)ccc21,HeLa S3,>20 µg/mL
C[C@]1(CO)O[C@@H](n2ccc(N)nc2=O)[C@H](O)[C@@H]1O,HepG2.2.15,>100 µM
CCOC(OCC)c1cn([C@H]2C[C@H](OC(C)=O)[C@@H](COC(C)=O)O2)c(=O)[nH]c1=O,HFF,>300 µM
CN1CCc2cc3c(cc2C(=O)Cc2ccc4c(c2C1)OCO4)OCO3,CEF,60 µM
O=c1c(O)c(-c2ccc(Cl)c(Cl)c2)oc2ccccc12,HeLa,3.52 µM
CSc1nsc(-c2ccc(OCc3ccccc3)cc2)c1C#N,HEP-2,>50 µM
Nc1ccn(CC[C@H](O)CCO)c(=O)n1,HeLa,>400 µg/mL
CSc1nsc(-c2ccc(OCc3ccccc3)cc2)c1C#N,HEP-2/L-929/VERO,>50 µM

3 of the rows above, restated:

structure,cells,result
[N-]=C=Nc1nncs1,CEF,>32 µg/mL
Cc1cc(C)nc(NS(=O)(=O)c2ccc(N=C3C(=O)N(CN4CCNCC4)c4ccccc43)cc2)n1,HFF,225 µM
Nc1ncnc2c1ncn2[C@@H]1C[C@H](CO)[C@@H](O)[C@H]1O,PRK,4 µg/mL